Record: PubChem BioAssay AID504761 (Drosophila RNAi Screening Center, 2011)
The screen tested about 22,000 reagents; below is an unselected part of those with a known target gene and a result. In the full data, 116 (0.52%) were called active. 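Calls depend on retest data that are not deposited; infection was ranked per plate without normalising between plates; the unit of the infection score is not given.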 Raw values are not corrected between plates. Reagents against one gene are numbered here. Names joined by + are all predicted targets of the reagent. The record does not give: the amount of reagent, the time to read-out.

- Assay: 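Genome-wide fly cell screen for genes dengue virus requires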 (primary screen)
- Cells: D.Mel-2 cells from Drosophila
- Reagents: long dsRNA against Drosophila genes
- Treatment: infection with dengue virus type 2; dose and infection time not stated
- Detection: 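Per well on two replicate plates, imaging gave the percent of cells positive for viral envelope protein, ranked by infection, and a nuclear count of cells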
- Scale: infection score: higher = more virus-infected cells; cell count: higher = more cells in the well
- Hit rule: 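Low infection ranks in the two replicates (chance level up to 0.065) followed by a retest with a 1.5-fold or larger significant decrease, p below 0.05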
- Calls: active = confirmed: knock-down lowers infection; inactive = not picked or not confirmed

The opening 8 entries, ahead of the listing:
no.	gene	reagent no.	infection score, replicate 1	infection score, replicate 2	cell count, replicate 1	cell count, replicate 2	Call
1	tho2	1	2.87	15	5784	3014	inactive
2	tho2	2	19.9	28.6	5595	5198	inactive
3	Lcp65Ad	1	1.76	2.48	5731	5515	inactive
4	Lcp65Ad	2	13.6	0.66	5611	5928	inactive
5	hook	1	13.5	4.47	6254	5858	inactive
6	tio	1	4.9	5.38	6593	6565	inactive
7	dbo	1	1.83	2.62	5914	6221	inactive
8	Inx7 + cm	1	5.1	17.1	6161	6050	inactive

The listing, from the start:
no.	gene	reagent no.	infection score, replicate 1	infection score, replicate 2	cell count, replicate 1	cell count, replicate 2	Call
1	tho2	1	2.87	15	5784	3014	inactive
2	tho2	2	19.9	28.6	5595	5198	inactive
3	Lcp65Ad	1	1.76	2.48	5731	5515	inactive
4	Lcp65Ad	2	13.6	0.66	5611	5928	inactive
5	hook	1	13.5	4.47	6254	5858	inactive
6	tio	1	4.9	5.38	6593	6565	inactive
7	dbo	1	1.83	2.62	5914	6221	inactive
8	Inx7 + cm	1	5.1	17.1	6161	6050	inactive
9	Flo1	1	16.5	45	5052	5472	inactive
10	Flo1	2	20.4	5	4802	1441	inactive
11	CG42758	1	0.72	0.76	5866	6598	inactive
12	Naus	1	8.65	8.93	6437	6308	inactive
13	Naus	2	7.82	5.55	6383	6216	inactive
14	Naus	3	3.64	1.36	6214	6114	inactive
15	CG9747	1	3.41	4.27	6547	5669	inactive
16	CG9747	2	10.7	16.9	4666	6152	inactive
17	Ada	1	2.69	8.41	6584	6684	inactive
18	lncRNA:roX1	1	14.9		4091		inactive
19	lab	1	2.37	3.52	5578	5538	inactive
20	lab	2	4.32	7.25	6112	6100	inactive
21	Jon25Bi	1	1.74	5.34	5905	6426	inactive
22	Jon25Bi	2	4.98	3.43	5524	5604	inactive
23	PCB	1	2.56	6.99	6101	6425	inactive
24	Syx4	1		5.38	433	1486	inactive
25	Syx4	2	0.18	2.83	6661	6334	active
26	lin-52	1	3.15	2.96	5785	5887	inactive
27	fd96Ca	1	2.1	9.8	6134	3297	inactive
28	fd96Ca	2	0.87	1.55	6471	6054	inactive
29	CG12506	1	3.74	2.71	6250	6384	inactive
30	CG34426	1	1.16	1.3	6451	6170	inactive
31	Act87E	1	2.35	0.58	6301	6215	inactive
32	Act87E	2	5.57	3.48	6209	5948	inactive
33	CG10337	1	16.8	3.1	4793	6346	inactive
34	CG6324	1	4.79	4.16	6472	6784	inactive
35	Prosbeta3	1	0.48	0.62	419	487	inactive
36	CG4465	1	7.54	0.63	6482	6011	inactive
37	CG34174	1	2.57	0.42	6036	6440	inactive
38	mtgo	1	2.99	47.4	6416	4898	inactive
39	mtgo	2	2.25	10.9	5609	4649	inactive
40	mtgo	3	7.95	11.3	6928	5852	inactive
41	mtgo	4	6.46	13.8	5604	6589	inactive
42	Tmem131	1	12.6	8.25	3824	1685	inactive
43	CG32808	1	2.56	0.18	6166	6078	inactive
44	CG32808	2	22.1	5.71	3983	1279	inactive
45	Dg	1	15.7	13.7	6052	6222	inactive
46	CG18577	1	2.51	11.6	6642	6171	inactive
47	CG30033	1	1.71	2.82	6437	6499	inactive
48	CG15725	1	7.71	3.75	5941	6483	inactive
49	ppk7	1	1.66	0.59	6278	6639	inactive
50	eya	1	1.23	2.55	6029	6461	inactive
51	Coa7	1	3.76	5.2	1754	1712	inactive
52	Coa7	2	10.4	12.4	5713	5952	inactive
53	twy	1	2.93	3.3	6209	6301	inactive
54	CG31104	1	4.35	4.95	6180	6869	inactive
55	CG31104	2	3.67	3.31	6184	7041	inactive
56	Uhg1	1	12.7	7.6	6086	5973	inactive
57	Obp69a	1	1.83	4.25	6778	6476	inactive
58	Obp69a	2	4.03	14.8	6593	5619	inactive
59	Ugt35E2	1	2.13	7.58	6606	6531	inactive
60	Ugt35E2	2	6.69	23.3	6708	6169	inactive
61	Prp3	1	11.9	19.7	2655	2538	inactive
62	CG31643	1	6.11	2.31	6119	5710	inactive
63	alien + CG17906	1	5.47	6.79	6031	6832	inactive
64	CtsL4	1	11.9	3.44	6425	6710	inactive
65	CG10062	1	17.9	4.46	5818	1233	inactive
66	CG10062	2	4.9	11	6367	6295	inactive
67	CG10062	3	4.2	8.43	7163	6830	inactive
68	Gcat	1	0.96	3.69	6017	6145	inactive
69	Gcat	2	12.6	12	5444	6353	inactive
70	bnk	1	12.2		1853	250	inactive
71	bnk	2	14.9	2.16	6163	6351	inactive
72	CG31109	1	7.65	3.7	5935	540	inactive
73	CG10116	1	5.22	3.7	6530	6897	inactive
74	CG13067	1	1.73	3.07	6407	5728	inactive
